Measured values from several laboratories, pooled; numbers as filed in NIAID ChemDB.

Shared fields: tests in culture; organism: Mycobacterium tuberculosis

Neighbouring rows are from separate reports. MIC bound: limit read from a one-dose screen. Blank or dashed fields: not listed here. ECn is the concentration giving n% inhibition of infection, replication or growth. Inhibition is in % at the dose shown (toxicity tests: loss of growth or viability). a–b is a range or a potency band. A number after MIC or MFC names an inhibition level or a share of isolates.

SMILES | read-out | method | cells | mutations | dose | strain or isolate | value
CN1c2ccccc2CCC1CCc1ccc2c(c1)OCO2 | MIC |  |  |  |  | MT5 | >339 µg/mL
Clc1ccc(CSc2nnc3c(n2)[nH]c2ccccc23)cc1 | MIC bound | resazurin |  |  |  | H37Rv | >6.25 µg/mL
CO[C@H]1/C=C/O[C@@]2(C)Oc3c(C)c(O)c4c(O)c(c(/C=N/N5CCNCC5)c(O)c4c3C2=O)NC(=O)/C(C)=C\C=C\[C@H](C)[C@H](O)[C@@H](C)[C@@H](O)[C@@H](C)[C@H](OC(C)=O)[C@@H]1C | MIC |  |  |  |  | H37Rv | 2 µg/mL
O=C1C=C(NCCCCC2CCCCC2)c2ccccc2C1=O | MIC | resazurin |  |  |  | H37Rv | 1.56 µg/mL
COc1ccc(C(=O)/C=C/c2ccco2)c(O)c1 | EC50 |  |  |  |  | H37Rv | >12.5 µg/mL
CC(=O)N1N=C(C2=C(C)NC(=O)NC2c2ccccc2F)OC1c1ccccc1 | inhibition | agar / visual reading |  |  | 250 µg/mL | H37Rv | 36%
CCCCCC(O)CC(=O)CCc1ccc(O)c(OC)c1 | MIC |  |  |  |  | H37Rv | >100 µg/mL
CCn1cc(C(=O)O)c(=O)c2cc(F)c(N3CCNCC3)cc21 | MIC90 |  |  |  |  |  | 8 µg/mL
O=C1c2ccccc2OC(c2cccc(Br)c2)C1O | inhibition |  |  |  | 12.5 µg/mL | H37Rv | 60%
CO[C@H]1/C=C/O[C@@]2(C)Oc3c(C)c(O)c4c(O)c(c(/C=N/N=C/c5ccccc5)c(O)c4c3C2=O)NC(=O)/C(C)=C\C=C\[C@H](C)[C@H](O)[C@@H](C)[C@@H](O)[C@@H](C)[C@H](OC(C)=O)[C@@H]1C | MIC |  |  |  |  | H37Rv | 1 µg/mL
Cn1c2c(F)cccc2c(=O)c2c(O)cc3c(c21)C=CC(C)(C)O3 | MIC | BACTEC |  |  |  | H37Rv | ≥12.5 µg/mL
CC(=O)N1N=C(C2=C(C)NC(=O)NC2c2ccccc2F)OC1c1ccc(O)cc1 | inhibition | agar / visual reading |  |  | 250 µg/mL | H37Rv | 71%
CC(C)(C)C(O)c1c(-c2ccccc2)c(-c2ccccc2)n2ccc(C#N)cc12 | inhibition |  | VERO |  | 6.25 µg/mL | H37Rv | 94%
CC(C)=NNC(=O)CCC1=NNC(=O)CC1 | MIC |  |  |  |  | H37Rv | >500 µg/mL
COC(=O)N1N=C(c2ccccc2)C(C(=O)OC)(C(=O)OC)c2ccccc21 | MIC bound | BACTEC |  |  |  | H37Rv | >12.5 µg/mL
NC(=S)NN=C(CCC(=O)O)CCC(=O)O | MIC |  |  |  |  | H37Rv | 50 µg/mL
CC1CCCC2(C1)SC(C)C(=O)N2NC(=O)Cc1csc2nc(-c3ccccc3)cn12.O | EC50 |  |  |  |  | H37Rv | <6.25 µg/mL
CC(=O)N1N=C(C2=C(C)NC(=O)NC2c2ccccc2F)OC1c1ccccc1O | inhibition | agar / visual reading |  |  | 250 µg/mL | H37Rv | 69%
O=C(Cc1csc2nc(-c3ccc(Cl)cc3)cn12)NN=C1CCCCC1 | EC50 |  |  |  |  | H37Rv | >6.25 µg/mL
CC(C)OC(=O)C1(C(=O)OC(C)C)C[C@@H]2CNC[C@H]2c2c1[nH]c1ccccc21 | MIC |  |  |  |  | H37Ra | 64 µg/mL
CCCN(CCC)/N=C/c1c2c(O)c3c(O)c(C)c4c(c3c1O)C(=O)[C@@](C)(O/C=C/[C@H](OC)[C@@H](C)[C@@H](OC(C)=O)[C@H](C)[C@H](O)[C@H](C)[C@@H](O)[C@@H](C)/C=C/C=C(/C)C(=O)N2)O4 | MIC |  |  |  |  | H37Rv | 0.05 µg/mL
Cc1cc(O)c2c(c1)C(=O)C(c1c(C)cc3c(c1O)C(=O)C1OC1C3=O)=CC2=O | MIC |  |  |  |  | PZA-R | 0.8 µg/mL
O=C1c2ccccc2OC(c2ccccc2)C1I | EC50 |  |  |  |  | H37Rv | >12.5 µg/mL
CC(C)CCC[C@@H](C)C1CC[C@H]2[C@@H]3CC=C4N(c5ccccc5)C(=O)CC[C@]4(C)[C@H]3CC[C@]12C | MIC bound | BACTEC |  |  |  | H37Rv | >6.25 µg/mL
O=C1c2ccccc2OC(c2cccc(Cl)c2)C1O | inhibition |  |  |  | 12.5 µg/mL | H37Rv | 63%
NC(=O)c1cnccn1 | MIC99 | resazurin |  | INH resistant |  | H37Rv | 50.77 µg/mL
Cn1c(SSc2ccc(-c3cccnc3)n2C)ccc1-c1cccnc1 | inhibition | resazurin |  |  | 6.25 µg/mL |  | -1%
c1ccc2cc3c(cc2c1)nc1c2ccccc2ncn31 | MIC99 | resazurin |  |  |  | H37Rv | >25 µg/mL
FC(F)(F)c1cc(-c2ccccc2)nc(N2N=C(/C=C/c3ccc(Cl)cc3)CC2c2ccc(Cl)cc2)n1 | MIC | resazurin |  |  |  | H37Rv | >41.2 µM
CCOC(=O)CCC1=NNC(=O)CC1 | MIC |  |  |  |  | H37Rv | 500 µg/mL
CC1CCC2(CC1)SC(C)C(=O)N2NC(=O)Cc1csc2nc(-c3ccccc3)cn12 | inhibition |  | VERO |  | 6.25 µg/mL | H37Rv | 99%
CO[C@H]1/C=C/O[C@@]2(C)Oc3c(C)c(O)c4c(O)c(c(C=Nc5ccccc5)c(O)c4c3C2=O)NC(=O)/C(C)=C\C=C\[C@H](C)[C@H](O)[C@@H](C)[C@@H](O)[C@@H](C)[C@H](OC(C)=O)[C@@H]1C | MIC |  |  |  |  | H37Rv | 5 µg/mL
CC(=O)NC(CCCCC(=O)NN)C(=O)NN | MIC |  |  |  |  | H37Rv | >200 µg/mL
COc1cc(OC)c2c(c1)OC(c1ccc(OC)c(I)c1)CC2=O | EC50 |  |  |  |  | H37Rv | >12.5 µg/mL
CCn1cc(C(=O)O)c(=O)c2cc(F)c(N3CCNCC3)cc21 | MIC |  |  |  |  | Isolate 870729 | 2 µg/mL
CCc1nc2ccc(F)cc2c2nc3ccccc3n12 | MIC99 | resazurin |  |  |  | H37Rv | >25 µg/mL
C[C@]1(COc2ccc(N3CCC(Oc4ccc(OC(F)(F)F)cc4)CC3)cc2)Cn2cc([N+](=O)[O-])nc2O1 | MIC |  |  |  |  | UT15 | 0.012 µg/mL
Nc1ccc(O)c(C(=O)/C=C/c2ccccc2)c1 | EC50 |  |  |  |  | H37Rv | >12.5 µg/mL
CC1(C)N=c2cc3c(cc2N1c1ccc(Cl)cc1)=Nc1ccccc1N3c1ccc(Cl)cc1 | MIC |  |  |  |  | RMP-R | 0.8 µg/mL
CCCCCc1cc(OC)c2ccccc2n1 | MIC |  |  |  |  | MT6 | 21 µg/mL
CC[n+]1c(-c2ccccc2)c2cc(NCCCN)ccc2c2ccc(N)cc21 | MIC bound | BACTEC |  |  |  | H37Rv | ≤12.5 µg/mL
O=c1cc(-c2ccc(Oc3c(O)cc4oc(-c5ccc(O)cc5)cc(=O)c4c3O)cc2)oc2cc(O)cc(O)c12 | EC50 |  |  |  |  | H37Rv | >12.5 µg/mL
CCCc1nc2ccc(C)cc2c2nc3ccccc3n12 | MIC99 | resazurin |  | INH resistant |  | H37Rv | 12.5 µg/mL
C/C=C/C/C=C/CCC(=O)[C@H]1O[C@H]1C(N)=O | MIC |  |  |  |  | Isolate H389 (MDR) | 3 µg/mL
CCC1CCC(=NNC(=O)Cc2csc3nc(-c4ccc(Cl)cc4)cn23)CC1 | inhibition |  |  |  | 6.25 µg/mL | H37Rv | 99%
COc1ccc2oc3c(OC)c(OC)c(OC)cc3c(=O)c2c1 | MIC bound | BACTEC |  |  |  | H37Rv | >12.5 µg/mL
COc1cc(OC)c2c(O)c3c(=O)cc(C)oc3c(-c3c(O)c4c(O)cc(C)oc4c4c(OC)cc(=O)cc34)c2c1 | MIC |  |  |  |  | H37Rv | 21.5 µM
CO[C@H]1/C=C/O[C@@]2(C)Oc3c(C)c(O)c4c(O)c(c(/C=N/c5nccs5)c(O)c4c3C2=O)NC(=O)/C(C)=C\C=C\[C@H](C)[C@H](O)[C@@H](C)[C@@H](O)[C@@H](C)[C@H](OC(C)=O)[C@@H]1C | MIC |  |  |  |  | H37Rv | 5 µg/mL
CCCCC(O)c1c(-c2ccccc2)c(-c2ccccc2)n2ccc(C#N)cc12 | inhibition |  | VERO |  | 6.25 µg/mL | H37Rv | 99%
COC(=O)c1nn(-c2ccccc2)c2c1C(=O)c1ccccc1C2=O | inhibition | resazurin |  |  | 6.25 µg/mL | H37Rv | 99%
NC(=O)NN=C(CCC(=O)O)CCC(=O)O | MIC |  |  |  |  | H37Rv | 100 µg/mL
OCC12CCCn3c1c(c1ccccc13)CCNC2 | MIC |  |  |  |  | H37Ra | 64 µg/mL
CC1CCCC2(C1)SCC(=O)N2NC(=O)Cc1csc2nc(-c3ccc(Cl)cc3)cn12 | MIC |  |  |  |  | H37Rv | >6.25 µg/mL
S=C(SCc1cc(Cl)cc2c1OCOC2)N1CCSCC1 | inhibition | BACTEC |  |  | 128 µg/mL | H37Rv | 74%
CC(C)OC(=O)C1(C(=O)OC(C)C)C[C@H](C=O)[C@H](C[N+](=O)[O-])c2c1[nH]c1ccccc21 | MIC |  |  |  |  | H37Ra | 256 µg/mL
CCOC(=O)CNc1ccc(C)c(F)c1 | MIC bound | BACTEC |  |  |  | H37Rv | >12.5 µg/mL
CCC1CCC(=NNC(=O)Cc2csc3nc(-c4ccccc4)cn23)CC1 | MIC |  |  |  |  | H37Rv | >6.25 µg/mL
O=[N+]([O-])c1ccc(C2=NOC(c3ccc(N4CCN(Cc5ccccc5)CC4)cc3)C2)o1 | MIC |  |  |  |  | UT30 | 0.003 µg/mL
C=C1C(=O)OC2C1CCC1(C)CC(Br)C(=O)C(C)C21 | inhibition | BACTEC |  |  | 12.5 µg/mL | H37Rv | 70%
N=C(N)N1N=C(/C=C/c2ccc(Cl)cc2)CC1c1ccc(Cl)cc1 | MIC | resazurin |  | katG S315T isoniazid resistant |  | RGH103 | 0.58 µM
NC(=O)C1CC(I)C2CC1C(=O)O2 | MIC bound | BACTEC |  |  |  | H37Rv | >12.5 µg/mL
O=[N+]([O-])c1cn2c(n1)OC[C@@H](OCc1ccc(OC(F)(F)F)cc1)C2 | MIC |  |  |  |  | UT30 | 0.024 µg/mL
Cc1ccc(-c2c(Br)c3cc(C#N)ccn3c2-c2ccc(C)cc2)cc1 | inhibition |  |  |  | 6.25 µg/mL | H37Rv | 52%
CC1COc2c(N3CCN(C)CC3)c(F)cc3c(=O)c(C(=O)O)cn1c23 | MIC |  |  |  |  | Isolate 870729 | <0.5 µg/mL
CC1CCCC2(C1)SC(C)C(=O)N2NC(=O)Cc1csc2nc(-c3ccc(Cl)cc3)cn12 | EC50 |  |  |  |  | H37Rv | <6.25 µg/mL
CO[C@H]1/C=C/O[C@@]2(C)Oc3c(C)c(O)c4c(O)c(c(/C=N/N5CCCC(O)C5)c(O)c4c3C2=O)NC(=O)/C(C)=C\C=C\[C@H](C)[C@H](O)[C@@H](C)[C@@H](O)[C@@H](C)[C@H](OC(C)=O)[C@@H]1C | MIC |  |  |  |  | H37Rv | 0.05 µg/mL
CO[C@H]1/C=C/O[C@@]2(C)Oc3c(C)c(O)c4c(O)c(c(/C=N/N5CCN(C)CC5)c(O)c4c3C2=O)NC(=O)/C(C)=C\C=C\[C@H](C)[C@H](O)[C@@H](C)[C@@H](O)[C@@H](C)[C@H](OC(C)=O)[C@@H]1C | MIC |  |  |  |  | H37Rv | 0.114 µM
O=C1C[C@@H](c2ccc(O)c(O)c2)Oc2c1c(O)cc(O)c2[C@H]1C(=O)c2c(O)cc(O)cc2O[C@@H]1c1ccc(O)cc1 | EC50 |  |  |  |  |  | >12.5 µg/mL
O=C(O)CN1C(=O)C2C3CCC(O3)C2C1=O | MIC bound | BACTEC |  |  |  | H37Rv | >12.5 µg/mL
CCC1CCC2(CC1)SCC(=O)N2NC(=O)Cc1csc2nc(-c3ccc(Cl)cc3)cn12 | inhibition |  |  |  | 6.25 µg/mL | H37Rv | 0%
CC1COc2c(N3CCN(C)CC3)c(F)cc3c(=O)c(C(=O)O)cn1c23 | MIC50 |  |  |  |  | 10 strains | 2 µg/mL
CCOC(=O)CN/N=C(\N)CSS(=O)(=O)O | MIC | BACTEC |  |  |  | H37Rv | ≥12.5 µg/mL
CC[C@@H](CO)NCCN[C@@H](CC)CO | MIC99 | resazurin |  |  |  | H37Rv | 1.56 µg/mL
CC1CC(N)=NC1C(=O)NCCC#N.Cl | MIC bound | BACTEC |  |  |  | H37Rv | >12.5 µg/mL
N=C(N)N1N=C(/C=C/c2ccccc2)CC1c1ccccc1 | MIC | resazurin |  |  |  | H37Rv | 2.15 µM
N#Cc1ccn2c(-c3ccc(F)cc3)c(-c3ccc(F)cc3)c(C(O)c3ccccc3)c2c1 | inhibition |  |  |  | 6.25 µg/mL | H37Rv | 35%
C[C@H]1COc2c(N3CCN(C)CC3)c(F)cc3c(=O)c(C(=O)O)cn1c23 | MIC50 |  |  |  |  | 10 strains | 0.5 µg/mL
CC(C)OC(=O)c1cc(C=O)cc2c1[nH]c1ccccc12 | MIC |  |  |  |  | H37Ra | 128–256 µg/mL
Nc1ccc(C(=O)NN=C(CCC(=O)O)CCC(=O)O)c(O)c1 | MIC |  |  |  |  | H37Rv | 50 µg/mL
N=Nc1c2ccccc2c2nc3c(N)[nH]nc(N)c3nc12 | MIC bound | resazurin |  |  |  | H37Rv | >6.25 µg/mL
N#Cc1ccn2c(-c3ccccc3)c(-c3ccccc3)c(C(O)c3ccccc3)c2c1 | MIC |  | VERO |  |  | H37Rv | 6.25 µg/mL
O=C(ON=c1c2ccccc2ccc2ccccc12)c1ccccc1 | MIC bound | BACTEC |  |  |  | H37Rv | >12.5 µg/mL
COC(=O)C1(C(=O)OC)CCC(O)n2c1c(/C=C/[N+](=O)[O-])c1ccccc12 | MIC |  |  |  |  | H37Ra | 256 µg/mL

Repeating the final 5 entries:

Nc1ccc(C(=O)NN=C(CCC(=O)O)CCC(=O)O)c(O)c1 ; read-out: MIC ; strain or isolate: H37Rv ; value: 50 µg/mL
N=Nc1c2ccccc2c2nc3c(N)[nH]nc(N)c3nc12 ; read-out: MIC bound ; method: resazurin ; strain or isolate: H37Rv ; value: >6.25 µg/mL
N#Cc1ccn2c(-c3ccccc3)c(-c3ccccc3)c(C(O)c3ccccc3)c2c1 ; read-out: MIC ; cells: VERO ; strain or isolate: H37Rv ; value: 6.25 µg/mL
O=C(ON=c1c2ccccc2ccc2ccccc12)c1ccccc1 ; read-out: MIC bound ; method: BACTEC ; strain or isolate: H37Rv ; value: >12.5 µg/mL
COC(=O)C1(C(=O)OC)CCC(O)n2c1c(/C=C/[N+](=O)[O-])c1ccccc12 ; read-out: MIC ; strain or isolate: H37Ra ; value: 256 µg/mL